Experimental data: the supplement of paper PMC9931576
Human monoclonal antibodies against the spike receptor-binding domain (heavy:light variable regions). IC50 against pseudoviruses bearing the spike of naturally observed variants; lower = stronger; >10 µg/ml means not reached at the top dose. No active / inactive call. The stated detection limit is 0.0005 µg/ml; values near or below 0.001 µg/ml lie at the floor of the assay.

Legend:
Assay in all cases: pseudovirus neutralization IC50; higher = weaker neutralization
[1] = target: SARS-CoV-2 Omicron BA.1 spike pseudovirus
Method: (§1)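 Single-round VSV luciferase pseudovirus mixed with antibody dilutions for 1 h and put on Huh-7 cells for about a day; IC50 from the dose curve.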

[2] = target: SARS-CoV-2 Omicron BA.2 spike pseudovirus
Method: as §1

[3] = target: SARS-CoV-2 Omicron BA.2.75 spike pseudovirus
Method: as §1

[4] = target: SARS-CoV-2 Omicron BA.5 spike pseudovirus
Method: as §1

[5] = target: SARS-CoV-2 Omicron BQ.1.1 spike pseudovirus
Method: as §1

[6] = target: SARS-CoV-2 Omicron XBB spike pseudovirus
Method: as §1

[7] = target: SARS-CoV-2 early D614G spike pseudovirus
Method: as §1

B1: BD55-688 (protein)
chain 1: QVQLQESGPGLVKPSETLSLTCTVSGGSISNYFWSWLRQPPGKGLEWIGYIYNSGNTNYNPSLKSRVTISVDTSKNQFSLKVSSVTAADTAVYYCARGRWLRGEFDYWGQGTLVTVSS
chain 2: NFMLTQPHSVSESPGKTVTISCTGSSGSIASNYVQWYQQRPGSAPMTVIYEDNLRPSGVPDRFSGSIDSSSNSASLTISGLKTEDEADYYCQSYDSGFYVFGTGTKVTVL
In the case of B1, the “pseudovirus neutralization IC50” value [1] is reported as 2.64 µg/mL, the “pseudovirus neutralization IC50” value [2] is reported as over 10 µg/mL and the “pseudovirus neutralization IC50” value [3] is reported as over 10 µg/mL. The “pseudovirus neutralization IC50” value [4] was over 10 µg/mL, the “pseudovirus neutralization IC50” value [5] was over 10 µg/mL and the “pseudovirus neutralization IC50” value [6] was over 10 µg/mL. The “pseudovirus neutralization IC50” value [7] was 1.33 µg/mL.

B2: BD55-711 (protein)
chain 1: QVTLKESGPVLVKPTETLTLTCSVSGFSLSNARMGVSWIRQPPGKALEWLAHIFSNDEKSYSTSLKSRLTISKDTSKSQVVLTMTNMDPVDTATYFCARMPMYYDVLRGGYYYGMDVWGQGITVTVSS
chain 2: NFMLTQPHSVSESPGKTVTISCTRSSGSIASNYVQWYQQRPGSAPTTVIYEDNERPSGVPDRFSGSIDSSSNSASLTISGLKTEDEADYYCQSYDSSTVVFGGGTKLTVL
B2 was tested, and the “pseudovirus neutralization IC50” value [1] was over 10 µg/mL, the “pseudovirus neutralization IC50” value [2] was over 10 µg/mL and the “pseudovirus neutralization IC50” value [3] was over 10 µg/mL. The “pseudovirus neutralization IC50” value [4] was over 10 µg/mL, the “pseudovirus neutralization IC50” value [5] was over 10 µg/mL and the “pseudovirus neutralization IC50” value [6] was over 10 µg/mL. The “pseudovirus neutralization IC50” value [7] was 4 µg/mL.

B3: BD55-742 (protein)
chain 1: QVTLKESGPVLVKPTETLTLTCTVSGFSLSNARMGVSWIRQPPGKALEWLAHIFSNDEKSYSTSLKSRLTISKDTSKSQVVLTMTNMDPVDTATYYCARILYVVLTAIPLDEGYFDLWGRGTLVTVSS
chain 2: SYELTQPPSVSVSPGQTARITCSGDTLPKQYVYWYQQKPGQAPVLTIYKDSERPSGIPERFSGSSSGTTVTLTISRVQAEDEADYYCQSADSRGVVFGGGTKLTVL
In the case of B3, the “pseudovirus neutralization IC50” value [1] is reported as over 10 µg/mL, the “pseudovirus neutralization IC50” value [2] is reported as over 10 µg/mL and the “pseudovirus neutralization IC50” value [3] is reported as over 10 µg/mL. For the same binder, the “pseudovirus neutralization IC50” value [4] was over 10 µg/mL, the “pseudovirus neutralization IC50” value [5] was over 10 µg/mL and the “pseudovirus neutralization IC50” value [6] was over 10 µg/mL. The “pseudovirus neutralization IC50” value [7] was over 10 µg/mL.

B4: BD55-747 (protein)
chain 1: QLQLHESGPPLLKPSATLSLTCTVSGASFNSANYFWAWIRQPPGKGLEWIGTFYYTGTTYYNPSLKSRVTMSVDTSKNQFSLRLISVAAADTAVYYCASLRWLRGQFNYWGQGSLVTVSS
chain 2: NFMLTQPHSVSESPGKTVTISCTRISGYIASNYVHWYQQRPGSAPTTVIYEDNQRPSGVPDRFSGSIDSSSNSASLTISGLKTEDEADYYCQSYDSTFWVFGGGTKVTVL
With B4 the “pseudovirus neutralization IC50” value [1] was 3.18 µg/mL, the “pseudovirus neutralization IC50” value [2] was over 10 µg/mL and the “pseudovirus neutralization IC50” value [3] was over 10 µg/mL. For the same binder, the “pseudovirus neutralization IC50” value [4] was over 10 µg/mL, the “pseudovirus neutralization IC50” value [5] was over 10 µg/mL and the “pseudovirus neutralization IC50” value [6] was over 10 µg/mL. For the same binder, the “pseudovirus neutralization IC50” value [7] was 0.305 µg/mL.

B5: BD55-749 (protein)
chain 1: QVQLVQSGAEVKKPGASVKVSCKASGYTFSNYGITWVRQAPGQGLEWMGWISAYNSNTKYAQKFQGRVTMTTETSTSTAYMELRFLRSDDTAVYYCARLLTGTTFVSSSRAFDIWGQGTMVTVSS
chain 2: SYELTQPPSVSVSPGQTASITCSGDALSKQYAYWYQQRPGQAPVVVIYKDRERPSGIPERFSGSSSGTTVTLTITGVQAEDEADYYCQSADSSGTYVFGTGTKVTVL
In the case of B5, the “pseudovirus neutralization IC50” value [1] is reported as 4.5 µg/mL, the “pseudovirus neutralization IC50” value [2] is reported as 6.02 µg/mL and the “pseudovirus neutralization IC50” value [3] is reported as 5.33 µg/mL. For the same binder, the “pseudovirus neutralization IC50” value [4] was 6.21 µg/mL, the “pseudovirus neutralization IC50” value [5] was over 10 µg/mL and the “pseudovirus neutralization IC50” value [6] was over 10 µg/mL. For the same binder, the “pseudovirus neutralization IC50” value [7] was 1.04 µg/mL.

B6: BD55-751 (protein)
chain 1: QVQLVQSGSELKKPGASVKVSCKASGYTFTNYGINWVRQAPGQGLEWMGWINTYTGNPTYAQGFTGRFVFSFDTSVNTAYLQISSLKAEDTAVYYCARANRKYYYGHILEWFDPWGQGTLVTVSS
chain 2: QLVLTQSPSASASLGASVRLTCTLSSGHSSYAIAWHQQQPGKGPRFLMKVYSDGVHSKGDGIPDRFSGSSSGAERYLTISSLQSEDEADYYCQTWGTDIGVFGTGTKVTVL
In the case of B6, the “pseudovirus neutralization IC50” value [1] is reported as over 10 µg/mL, the “pseudovirus neutralization IC50” value [2] is reported as over 10 µg/mL and the “pseudovirus neutralization IC50” value [3] is reported as over 10 µg/mL. For the same binder, the “pseudovirus neutralization IC50” value [4] was over 10 µg/mL, the “pseudovirus neutralization IC50” value [5] was over 10 µg/mL and the “pseudovirus neutralization IC50” value [6] was over 10 µg/mL. The “pseudovirus neutralization IC50” value [7] was 1.68 µg/mL.

B7: BD55-977 (protein)
chain 1: QVQLVQSGPEVKKPGSPVKVSCKASGGTFNKFNYGIHWVRQAPGQGLEWMGRIIPLFGLTNYADKFEGRVTITADKSATTAYMEIYSLTSDDTAVYFCAGEALKPLDGYSTSWNDHWGQGTLVTVSS
chain 2: EIVMTQSPGTLSVSPGERATLSCRASQSIGSNLAWYQQKPGQAPRLLFSRATNRAAGVPAKFSGSGSGTEFTLTISSLQSEDFGVYYCQQFNNWPLTFGQGTRLEIK
In the case of B7, the “pseudovirus neutralization IC50” value [1] is reported as over 10 µg/mL, the “pseudovirus neutralization IC50” value [2] is reported as 1.17 µg/mL and the “pseudovirus neutralization IC50” value [3] is reported as over 10 µg/mL. For the same binder, the “pseudovirus neutralization IC50” value [4] was over 10 µg/mL, the “pseudovirus neutralization IC50” value [5] was over 10 µg/mL and the “pseudovirus neutralization IC50” value [6] was over 10 µg/mL. The “pseudovirus neutralization IC50” value [7] was 1.53 µg/mL.

B8: BD-732 (protein)
chain 1: QVQLQEAGPGLVKPSGTLSLTCAVSGGSISGSHWWTWVRQPPGKGLEWIGEIFHSGSTTYNPSLKSRITMSVDKSKNQFSLKLNSVTAADTAVYYCARASAIIDYWGQGTLVTVSS
chain 2: DIQMTQSPSSLSASVGDRVTITCRASQGISNSLAWYQQKPGKAPKLLLYAASTLESGVPSRFSGSGSGTDYTLTISSLQPEDFATYYCQQYYSPPPRTFGQGTKVEIK
For B8, the “pseudovirus neutralization IC50” value [1] was over 10 µg/mL, the “pseudovirus neutralization IC50” value [2] was over 10 µg/mL and the “pseudovirus neutralization IC50” value [3] was over 10 µg/mL. For the same binder, the “pseudovirus neutralization IC50” value [4] was over 10 µg/mL, the “pseudovirus neutralization IC50” value [5] was over 10 µg/mL and the “pseudovirus neutralization IC50” value [6] was over 10 µg/mL. The “pseudovirus neutralization IC50” value [7] was over 10 µg/mL.

B9: BD-743 (protein)
chain 1: QVQLVQSGAEVKKPGASVKVSCKASGYTFASHNMHWVRQAAGQRLEWMGWMNAGNGNTKYLQKFQGRLTITRDTSATTAHMELSSLRSEDTAVYYCVRLGSEIEVGPDFWGQGTLVTVSS
chain 2: SYELTQPSSVSVSPGQTARITCSGDVLAKKYARWFQQKPGQAPVLVIYKDSERPSGIPERFSGSSSGTTVTLTISGAQVEDEADYYCYSAADNNLVFGGGTKLTVL
For B9, the “pseudovirus neutralization IC50” value [1] was 6.57 µg/mL, the “pseudovirus neutralization IC50” value [2] was 8.9 µg/mL and the “pseudovirus neutralization IC50” value [3] was 6.09 µg/mL. For the same binder, the “pseudovirus neutralization IC50” value [4] was 7.12 µg/mL, the “pseudovirus neutralization IC50” value [5] was over 10 µg/mL and the “pseudovirus neutralization IC50” value [6] was over 10 µg/mL. For the same binder, the “pseudovirus neutralization IC50” value [7] was 0.954 µg/mL.

B10: BD-767 (protein)
chain 1: QVQLVQSGAELKKPGASVKVSCKASGYTFTDYFIHWVRQAPGQGLEWMGWINPNSGGTNYAQKFQDWVTMTRDRSINTVYMELSRLKSDDTAVYYCARDQCGIGVAASGCVNRFDPWGQGTLVTVSS
chain 2: QSALTQPPSASGSPGQSVTISCTGTSSDPGGYKYVSWYQQGPSKAPKLIIYEVSKRPSGVPDRFSGSKSGNTASLTVAGLQAEDEADYYCSSYAGSNNVVFGGGTKLTVL
For B10, the “pseudovirus neutralization IC50” value [1] was over 10 µg/mL, the “pseudovirus neutralization IC50” value [2] was over 10 µg/mL and the “pseudovirus neutralization IC50” value [3] was over 10 µg/mL. For the same binder, the “pseudovirus neutralization IC50” value [4] was over 10 µg/mL, the “pseudovirus neutralization IC50” value [5] was over 10 µg/mL and the “pseudovirus neutralization IC50” value [6] was over 10 µg/mL. For the same binder, the “pseudovirus neutralization IC50” value [7] was 0.003 µg/mL.

B11: BD-778 (protein)
chain 1: EVQLVQSGAEVKKPGESLKISCKGSGYSFTRFWIGWVRQMPGRGLEWMGIIYPGDSDTRYSPSFQGQVTISADRSFSTAYLQWSSLKASDTAFYYCARHGDRLTTTTAQIDYWGQGTLVTVSS
chain 2: NFMLTQPHSVSESPGKTVTISCTRSSGSIASNYVQWYQQRPGSAPTTMIFEDNQGPSGVPDRFSGSIDSSSNSASLTISGLKTEDEAVYYCQSSDSSNVVFGGGTKLTVL
For B11, the “pseudovirus neutralization IC50” value [1] was 2.45 µg/mL, the “pseudovirus neutralization IC50” value [2] was 1.65 µg/mL and the “pseudovirus neutralization IC50” value [3] was 3.84 µg/mL. The “pseudovirus neutralization IC50” value [4] was 3.13 µg/mL, the “pseudovirus neutralization IC50” value [5] was 1.39 µg/mL and the “pseudovirus neutralization IC50” value [6] was 2.14 µg/mL. For the same binder, the “pseudovirus neutralization IC50” value [7] was 0.775 µg/mL.

B12: BD-790 (protein)
chain 1: QVQLVQSGAEVRKPGASVKVSCKASGYIFTGYYIHWVRQAPGQGLEWMGRLNPISGGTTYAQRFQGRVTMTRDTSITTAYMDVTRLRSDDTVVYYCARGPFYYDSGSAGSFDYWGQGTLVTVSS
chain 2: DIVMTQTPLSLSVTPGQPASISCKSSQSLLHSDGKTYLYWYLQKPGQPPQLLIYEVSNRFSGVTDRFSGSGSGTDFTLKISRVEAEDVGVYYCMQSIQLPLTFGGGTKVEIK
With B12 the “pseudovirus neutralization IC50” value [1] was over 10 µg/mL, the “pseudovirus neutralization IC50” value [2] was over 10 µg/mL and the “pseudovirus neutralization IC50” value [3] was over 10 µg/mL. For the same binder, the “pseudovirus neutralization IC50” value [4] was over 10 µg/mL, the “pseudovirus neutralization IC50” value [5] was over 10 µg/mL and the “pseudovirus neutralization IC50” value [6] was over 10 µg/mL. The “pseudovirus neutralization IC50” value [7] was 0.004 µg/mL.
